Pooled drug test results. Numbers come from NIAID ChemDB, via PubChem.

Shared fields: whole-cell or culture tests; species: Candida tropicalis; read-out: MIC

Blank or dashed fields: not listed here. Rows are shuffled and stem from different studies.

structure	conditions	strain	value
CCCCCCCCCCCCCC[C@@H]1CCCN1C	-	HB	25 µg/mL
O/N=C\c1ccccc1	-	-	4130 µM
CCC(C)CC(C)CCCCCCCCC(=O)N[C@H]1C[C@@H](O)[C@H](NCCN)NC(=O)[C@@H]2[C@@H](O)CCN2C(=O)[C@H]([C@H](O)CCN)NC(=O)[C@H]([C@H](O)[C@@H](O)c2ccc(O)cc2)NC(=O)[C@@H]2C[C@@H](O)CN2C(=O)[C@H]([C@@H](C)O)NC1=O	-	Isolate 425 (AMB FCZ 5FC-susceptible)	0.25 µg/mL
CCOC(=O)C1C(=O)C=C(c2ccc(F)cc2)CC1c1ccc(C2CC(c3ccc(F)cc3)=CC(=O)C2C(=O)OCC)cc1	-	Clinical isolate	12.5 µg/mL
COc1ccc(C[C@H](N)C(=O)N[C@H]2[C@@H](O)[C@H](n3cnc4c(N)ncnc43)O[C@@H]2C(=O)O)cc1	-	FP-583	>100 µg/mL
Clc1ccc(C(Cn2ccnc2)NC/C=C/c2ccccc2)cc1	-	CBS 94 CA 44 CA 37	50 µg/mL
CC(=O)NNC(=O)NCCCCCCNC(=O)NNC(C)=O	-	-	7.5 µg/mL
Nc1ccc(O)c2ncccc12	-	Berkout KCCM 50662	0.8 µg/mL
CCSc1ccnc(C(N)=S)c1	-	156	500 µM
COc1ccc(N2C(=O)C(O)C2c2ccccc2)cc1	-	CP/K92	46.45 µM
C[C@H]1N(C(=O)c2ccc(C(F)(F)F)cc2)C[C@@H](O)O[C@@]1(Cn1cncn1)c1ccc(F)cc1F	-	Isolate 1	>64 µg/mL
CCC(C)CC(C)CCCCCCCCC(=O)N[C@H]1C[C@@H](O)[C@H](NCCN)NC(=O)[C@@H]2[C@@H](O)CCN2C(=O)[C@H]([C@H](O)CCN)NC(=O)[C@H]([C@H](O)[C@@H](O)c2ccc(O)cc2)NC(=O)[C@@H]2C[C@@H](O)CN2C(=O)[C@H]([C@@H](C)O)NC1=O	-	10 isolates	50 µg/mL
CO[C@@H]1C(COC(=O)CCC(=O)O)=CC2C(=O)O[C@H]3C[C@@H](C/C=C(\C)C[C@@H](C)/C=C/C=C4\CO[C@H]1[C@@]42O)O[C@@]1(CC[C@H](C)[C@@H](C)O1)C3	-	FA1572	0.06 µg/mL
COC(=O)c1ccc(N2C(=O)C(OS(=O)(=O)c3ccc(C)cc3)C2c2ccc(OC)cc2)cc1	-	CP/K92	11.6 µM
COc1cc(O)c2c(c1)C(=O)c1c(cc3c(c1O)-c1c(cc(C)c(C(=O)NC(CO)C(=O)O)c1O)[C@H](OC1OC(C)C(N(C)C)C(OC4OCC(O)C(O)C4O)C1O)[C@H]3O)C2=O	-	IFO 10241	6.3 µg/mL
COc1ccc(N2C(=O)C(OC(C)=O)C2c2ccccc2)cc1	-	CP/K92	40.19 µM
CCC(C)CC(C)CCCCCCCCC(=O)N[C@H]1C[C@@H](O)[C@H](NCCN)NC(=O)[C@@H]2[C@@H](O)CCN2C(=O)[C@H]([C@H](O)CCN)NC(=O)[C@H]([C@H](O)[C@@H](O)c2ccc(O)cc2)NC(=O)[C@@H]2C[C@@H](O)CN2C(=O)[C@H]([C@@H](C)O)NC1=O	-	Clinical isolates	0.024 µg/mL
Cc1n[nH]c(=O)n1CCCCCCn1c(C)n[nH]c1=O	-	-	3.75 µg/mL
CCCCCCCCSc1ccnc(C(N)=S)c1	-	156	>500 µM
O/N=C/c1ccc(O)cc1	-	-	7290 µM
O=c1[nH][nH]c2c1C(c1ccc(Cl)cc1)CC(c1ccc3ccccc3c1)=C2	-	-	12.5 µg/mL
O=[N+]([O-])c1cccc(/C=N\O)c1	-	-	3010 µM
COc1cc(O)c2c(c1)C(=O)c1c(cc3c(c1O)-c1c(cc(C)c(C(=O)NC(CO)C(=O)O)c1O)[C@H](OC1OC(C)C(O)C(OC4OCC(O)C(O)C4O)C1O)C3O)C2=O	-	ATCC 750	6.25 µg/mL
CCCCCCSc1ccnc(C(N)=S)c1	-	156	>500 µM
Clc1ccc(C(Cn2ccnc2)NCc2ccc(-c3ccccc3)cc2)c(Cl)c1	-	CBS 94 CA 44 CA 29	2.8 µg/mL
Cn1cccc1CC(=O)NNC(=O)NCCCCCCNC(=O)NNC(=O)Cc1cccn1C	-	-	7.5 µg/mL
CCC(C)CC(C)CCCCCCCCC(=O)N[C@H]1C[C@@H](O)[C@H](NCCN)NC(=O)[C@@H]2[C@@H](O)CCN2C(=O)[C@H]([C@H](O)CCN)NC(=O)[C@H]([C@H](O)[C@@H](O)c2ccc(O)cc2)NC(=O)[C@@H]2C[C@@H](O)CN2C(=O)[C@H]([C@@H](C)O)NC1=O	-	MY1124	0.25 µg/mL
CCOC(=O)C1C(=O)C=C(c2ccc(OC)cc2)CC1c1ccc(C2CC(c3ccc(OC)cc3)=CC(=O)C2C(=O)OCC)cc1	-	Clinical isolate	12.5 µg/mL
O=[N+]([O-])c1ccc(/C=N\O)cc1	-	-	3010 µM
COc1cc(O)c2c(c1)C(=O)c1c(cc3c(c1O)-c1c(cc(C)c(C(=O)NC(CO)C(=O)O)c1O)[C@H](OC1OC(C)C(O)C(OC4OCC(O)C(O)C4O)C1O)C3O)C2=O	-	Isolate 93-231 fluconazole-resistant	8 µg/mL
CC(=O)OC1C(=O)N2CCCS(=O)(=O)C12c1ccccc1	-	CP/K92	9.7 µM
C=C1CC(C/C(C)=C/COc2ccc3ccc(=O)oc3c2)OC1=O	-	MTCC 184	39 µg/mL
Cc1c(NC(=O)CSC(=S)N2CCCCC2C)c(=O)n(-c2ccccc2)n1C	-	KUEN 1021	12.5 µg/mL
CCCCC[C@@H]1OCO[C@@]2(C)/C=C(C)/C=C/C(=O)O[C@H]([C@@H](C)[C@@H](O)[C@H](C)[C@@]3(O)C[C@@H](O[C@H]4C[C@@H](O)[C@H](O)[C@@H](C)O4)[C@H](C)[C@@H](C)O3)[C@@H](OC)/C=C/C=C(\C)C[C@H]1[C@@H]2O	-	F-1	>100 µg/mL
Cc1ccc(/C=N/Nc2ccnc3cc(Cl)ccc23)cc1	-	-	80 µg/mL
O/N=C\c1ccccc1O	-	-	3600 µM
c1ccc(-c2ccc(CNC(Cn3ccnc3)c3ccccc3)cc2)cc1	-	CBS 94 CA 44 CA 38	1.9 µg/mL
O=c1[nH][nH]c2c1C(c1ccccc1)CC(c1ccc3ccccc3c1)=C2	-	-	25 µg/mL
CCCCCCCSc1ccnc(C(N)=S)c1	-	156	>500 µM
Clc1ccc(C(Cn2ccnc2)OCc2csc3c(Cl)cccc23)c(Cl)c1	48 h	65 isolates	>8 µg/mL
Clc1ccc(C(Cn2ccnc2)NCc2cccc3ccccc23)cc1	-	CBS 94 CA 44 CA 33	47.8 µg/mL
CCOC(=O)C1C(=O)C=C(c2ccc(Br)cc2)CC1c1ccc(C2CC(c3ccc(Br)cc3)=CC(=O)C2C(=O)OCC)cc1	-	Clinical isolate	25 µg/mL
Clc1ccc(C(Cn2ccnc2)NC/C=C/c2ccccc2)c(Cl)c1	-	CBS 94 CA 44 CA 35	50 µg/mL
C[C@@H](c1ncncc1F)[C@](O)(Cn1cncn1)c1ccc(F)cc1F	-	559-6.9	0.06 µg/mL
O=C(O)c1ccc(C[C@H](C(=O)O)[C@@H](O)C(=O)O)cc1	-	KKP 334	>4 µg/mL
Fc1ccc(C(Cn2ccnc2)NCc2ccc(-c3ccccc3)cc2)cc1	-	CBS 94 CA 44 CA 40	3.8 µg/mL

Repeating the final 4 entries:

{"structure": "Clc1ccc(C(Cn2ccnc2)NC/C=C/c2ccccc2)c(Cl)c1", "strain": "CBS 94 CA 44 CA 35", "value": "50 µg/mL"}
{"structure": "C[C@@H](c1ncncc1F)[C@](O)(Cn1cncn1)c1ccc(F)cc1F", "strain": "559-6.9", "value": "0.06 µg/mL"}
{"structure": "O=C(O)c1ccc(C[C@H](C(=O)O)[C@@H](O)C(=O)O)cc1", "strain": "KKP 334", "value": ">4 µg/mL"}
{"structure": "Fc1ccc(C(Cn2ccnc2)NCc2ccc(-c3ccccc3)cc2)cc1", "strain": "CBS 94 CA 44 CA 40", "value": "3.8 µg/mL"}